{"source": "patent US20260224597A1", "about": "“METHODS FOR ACTIVATING IMMUNE CELLS TO KILL BACTERIA” (The Texas A&M University System, priority 2023, published 2026)", "key": {"[1]": {"system": "human macrophages", "settings": "24 hours, 1000 nM"}, "[2]": {"system": "Mtb", "experiment": "Bacterial survival assay: ingested Mtb in human macrophages", "settings": "for number of viable Mtb compared to control: 72 hours of infection, inhibitor re-added at 24 and 48 hours"}, "[3]": {"system": "L. monocytogenes", "experiment": "Bacterial survival assay: ingested L. monocytogenes in human macrophages", "assay_type": "cell-based, Listeria monocytogenes", "settings": "GM-CSF-generated macrophages, 48 hours of infection, 10 and 1000 nM"}, "[4]": {"system": "L. pneumophila", "experiment": "Bacterial survival assay: ingested L. pneumophila in human macrophages", "assay_type": "cell-based, Legionella pneumophila", "settings": "GM-CSF-generated macrophages, 48 hours of infection, 100 and 1000 nM"}}, "data": [{"substance": "(1R*,2S*)-4-[2-Chloro-6-(methylamino)-9H-purin-9-yl]-2-(phosphonooxy)bicyclo[3.1.0]hexane-1-methanol dihydrogen phosphate ester diammonium salt", "values": [{"measurement": "metabolic activity of macrophages infected with Mtb", "setting": "[1]", "value": "did not significantly change"}, {"measurement": "number of ingested Mtb compared to control", "setting": "[2]; GM-CSF human macrophages, after 4 hours of infection, 1000 nM inhibitor", "value": "did not significantly alter"}, {"measurement": "number of viable Mtb compared to control", "setting": "[2]; GM-CSF macrophages, 100 nM and higher", "value": "reduced the number of viable Mtb"}, {"measurement": "viability of ingested Mtb compared to control", "setting": "[2]; GM-CSF-generated human macrophages, 48 hours of infection, concentrations at and above 1 nM", "value": "reduced the viability"}, {"measurement": "number of viable Mtb compared to control", "setting": "[2]; M-CSF macrophages, 10 nM and higher", "value": "reduced the number of viable Mtb"}, {"measurement": "viability of ingested L. monocytogenes compared to control", "setting": "[3]", "value": "reduced the viability"}, {"measurement": "viability of ingested L. pneumophila compared to control", "setting": "[4]", "value": "reduced the viability"}]}]}
